Test results: patent US7262151B2, “Methods and compositions for production of lipo-chito oligosaccharides by rhizobacteria” (McGill University, priority 2001, dated 2007)

Tests used:
Test in all cases: LCO production by B. japonicum USDA 110 (butanol extraction, HPLC)
Format in all cases: cell-based, Bradyrhizobium japonicum
[1] = test system: B. japonicum USDA 110; parameters: key: **: differences at the 0.05 probability level; NS: not significant at P < 0.11; details: 25° C.; analysis of variance; factor levels 0 and 20 μM
Method: (§1) Cultures of B. japonicum (strain USDA 110) were grown at 28° C. in 600 ml of sterile yeast mannitol medium (YEM) at pH 6.8. The culture was shaken at 150 rpm until an OD620 of 0.4 to 0.6 was achieved (4 to 6 days). When the culture reached this stage, it was divided equally into four flasks (150 mL) and specific concentrations of JA and genistein were added to the cultures.
(§2) One hundred and fifty mL of each culture were extracted with 40 mL of the HPLC-grade butanol (Fisher Science Ltd., 112 Colonnade Road, Nepean, ON, Canada) by shaking together for 5 minutes. The two phases were then allowed to separate by leaving the mixture to stand overnight. The upper layer (butanol) was collected with a glass pipette and 25 mL were placed in a 250 ml evaporation flask. LCO extract solutions were stored at 4° C. until evaporation. This step was conducted at 80° C. with a Yamato RE 500 Rotary Evaporator (Yamato Scientific American Inc., Orangeburge, N.Y., USA). The butanol phase was evaporated down to 2 to 3 mL. […]
(§3) Each of the above experiments was conducted two times and the experimental results were pooled and analyzed statistically by analysis of variance using the Statistical Analysis System computer package (SAS Institute Inc. 1980). […] Since the effects of temperature on growth were very large, the data from two temperatures used in the first experiment were analyzed separately.

[2] = test system: B. japonicum USDA 110; parameters: key: **, NS indicates differences at the 0.05 probability level; **, NS indicates differences at the 0.05 probability level; details: 20 hour; 17° C.; factor levels 0 and 20 μM
Method: as §1, §2, §3

[3] = test system: B. japonicum USDA 110; details: factor levels 0 and 20 μM
Method: as §1
One hundred and fifty mL of each culture were extracted with 40 mL of the HPLC-grade butanol (Fisher Science Ltd., 112 Colonnade Road, Nepean, ON, Canada) by shaking together for 5 minutes. The two phases were then allowed to separate by leaving the mixture to stand overnight. The upper layer (butanol) was collected with a glass pipette and 25 mL were placed in a 250 ml evaporation flask. LCO extract solutions were stored at 4° C. until evaporation. This step was conducted at 80° C. with a Yamato RE 500 Rotary Evaporator (Yamato Scientific American Inc., Orangeburge, N.Y., USA). The butanol phase was evaporated down to 2 to 3 mL. The resulting light brown material was dissolved in 4 ml of 18% acetonitrile and stored in the dark at 4° C. in a glass tube sealed with parafilm.
For HPLC analysis we used a Vydac C18 reversed—phase column (VYDAC, Hesperia, Calif., USA) with a flow rate of 1.0 mL/min and a Vydac guard column (VYDAC, Hesperia, Calif., USA). We used at least 10 min. of isocratic run with 18% acetonitrile (AcN/H2O; w/w) to establish a baseline. The baseline value was always about 0.010. When a sample was loaded we conducted an isocratic elution with 18% AcN for 45 min. This step removed all non-polar light fractions. We then applied a gradient elution (18 to 82% AcN) for 70 min. LCOs begin to appear at 84 to 86 min of HPLC run time. We used B. japonicum Nod factor (BjV (C18:1, MeFuc)) obtained from G. Stacey (University of Tennessee, Knoxville, Tenn.) as a standard. The identity of the LCO was confirmed by the Complex Carbohydrate Research Center at the University of Georgia with FAB-MS and MALDI-TOF spectrometry analysis.
There were two experiments conducted. In the first the treatments consisted of factorial combinations of two concentrations (0 and 20 μM) of two signal materials (JA and genistein (zhang and Smith, 1995)). The experiment was organized following a randomized complete block design with three blocks. In experiment 1, two temperatures were used (17 and 25° C.). The LCO was extracted 10 h after the addition of the signal compounds. Experiment 2 was generally like experiment one except that only one temperature, 17° C. was used and LCO was extracted at 5, 10, 20 hour after JA and genistein were added.
as §3

CC/C=C\C[C@H]1C(=O)CC[C@@H]1CC(=O)O [JA, [1R-[1α,2β(Z)]]-3-oxo-2-(pentenyl)cyclopentaneacetic acid]
significance of factor effect on LCO production [1]: NS
significance of factor effect on LCO production [2]: NS
significance of factor effect on LCO production ([3]; 17° C., analysis of variance): ** (differences at the 0.05 probability level)
significance of factor effect on LCO production ([3]; 5 hour, 17° C.): ** (**, NS indicates differences at the 0.05 probability level)
significance of factor effect on LCO production ([3]; 10 hour, 17° C.): ** (**, NS indicates differences at the 0.05 probability level)

O=c1c(-c2ccc(O)cc2)coc2cc(O)cc(O)c12 [GEN, 5,7,4′-trihydroxyisoflavone]
significance of factor effect on LCO production ([3]; 17° C., analysis of variance): ** (differences at the 0.05 probability level)
significance of factor effect on LCO production ([3]; 25° C., analysis of variance): ** (differences at the 0.05 probability level)
significance of factor effect on LCO production ([3]; 5 hour, 17° C.): ** (**, NS indicates differences at the 0.05 probability level)
significance of factor effect on LCO production ([3]; 10 hour, 17° C.): ** (**, NS indicates differences at the 0.05 probability level)
significance of factor effect on LCO production ([3]; 20 hour, 17° C.): ** (**, NS indicates differences at the 0.05 probability level)
